# Test results published in ChEMBL document CHEMBL5606460, “ASAP - DENV-2 NS2B-NS3 protease fluorescence single point” (2024).
# Chains of the proteins cited; added tags and fusions are not shown.
# UniProt P29990, whole entry: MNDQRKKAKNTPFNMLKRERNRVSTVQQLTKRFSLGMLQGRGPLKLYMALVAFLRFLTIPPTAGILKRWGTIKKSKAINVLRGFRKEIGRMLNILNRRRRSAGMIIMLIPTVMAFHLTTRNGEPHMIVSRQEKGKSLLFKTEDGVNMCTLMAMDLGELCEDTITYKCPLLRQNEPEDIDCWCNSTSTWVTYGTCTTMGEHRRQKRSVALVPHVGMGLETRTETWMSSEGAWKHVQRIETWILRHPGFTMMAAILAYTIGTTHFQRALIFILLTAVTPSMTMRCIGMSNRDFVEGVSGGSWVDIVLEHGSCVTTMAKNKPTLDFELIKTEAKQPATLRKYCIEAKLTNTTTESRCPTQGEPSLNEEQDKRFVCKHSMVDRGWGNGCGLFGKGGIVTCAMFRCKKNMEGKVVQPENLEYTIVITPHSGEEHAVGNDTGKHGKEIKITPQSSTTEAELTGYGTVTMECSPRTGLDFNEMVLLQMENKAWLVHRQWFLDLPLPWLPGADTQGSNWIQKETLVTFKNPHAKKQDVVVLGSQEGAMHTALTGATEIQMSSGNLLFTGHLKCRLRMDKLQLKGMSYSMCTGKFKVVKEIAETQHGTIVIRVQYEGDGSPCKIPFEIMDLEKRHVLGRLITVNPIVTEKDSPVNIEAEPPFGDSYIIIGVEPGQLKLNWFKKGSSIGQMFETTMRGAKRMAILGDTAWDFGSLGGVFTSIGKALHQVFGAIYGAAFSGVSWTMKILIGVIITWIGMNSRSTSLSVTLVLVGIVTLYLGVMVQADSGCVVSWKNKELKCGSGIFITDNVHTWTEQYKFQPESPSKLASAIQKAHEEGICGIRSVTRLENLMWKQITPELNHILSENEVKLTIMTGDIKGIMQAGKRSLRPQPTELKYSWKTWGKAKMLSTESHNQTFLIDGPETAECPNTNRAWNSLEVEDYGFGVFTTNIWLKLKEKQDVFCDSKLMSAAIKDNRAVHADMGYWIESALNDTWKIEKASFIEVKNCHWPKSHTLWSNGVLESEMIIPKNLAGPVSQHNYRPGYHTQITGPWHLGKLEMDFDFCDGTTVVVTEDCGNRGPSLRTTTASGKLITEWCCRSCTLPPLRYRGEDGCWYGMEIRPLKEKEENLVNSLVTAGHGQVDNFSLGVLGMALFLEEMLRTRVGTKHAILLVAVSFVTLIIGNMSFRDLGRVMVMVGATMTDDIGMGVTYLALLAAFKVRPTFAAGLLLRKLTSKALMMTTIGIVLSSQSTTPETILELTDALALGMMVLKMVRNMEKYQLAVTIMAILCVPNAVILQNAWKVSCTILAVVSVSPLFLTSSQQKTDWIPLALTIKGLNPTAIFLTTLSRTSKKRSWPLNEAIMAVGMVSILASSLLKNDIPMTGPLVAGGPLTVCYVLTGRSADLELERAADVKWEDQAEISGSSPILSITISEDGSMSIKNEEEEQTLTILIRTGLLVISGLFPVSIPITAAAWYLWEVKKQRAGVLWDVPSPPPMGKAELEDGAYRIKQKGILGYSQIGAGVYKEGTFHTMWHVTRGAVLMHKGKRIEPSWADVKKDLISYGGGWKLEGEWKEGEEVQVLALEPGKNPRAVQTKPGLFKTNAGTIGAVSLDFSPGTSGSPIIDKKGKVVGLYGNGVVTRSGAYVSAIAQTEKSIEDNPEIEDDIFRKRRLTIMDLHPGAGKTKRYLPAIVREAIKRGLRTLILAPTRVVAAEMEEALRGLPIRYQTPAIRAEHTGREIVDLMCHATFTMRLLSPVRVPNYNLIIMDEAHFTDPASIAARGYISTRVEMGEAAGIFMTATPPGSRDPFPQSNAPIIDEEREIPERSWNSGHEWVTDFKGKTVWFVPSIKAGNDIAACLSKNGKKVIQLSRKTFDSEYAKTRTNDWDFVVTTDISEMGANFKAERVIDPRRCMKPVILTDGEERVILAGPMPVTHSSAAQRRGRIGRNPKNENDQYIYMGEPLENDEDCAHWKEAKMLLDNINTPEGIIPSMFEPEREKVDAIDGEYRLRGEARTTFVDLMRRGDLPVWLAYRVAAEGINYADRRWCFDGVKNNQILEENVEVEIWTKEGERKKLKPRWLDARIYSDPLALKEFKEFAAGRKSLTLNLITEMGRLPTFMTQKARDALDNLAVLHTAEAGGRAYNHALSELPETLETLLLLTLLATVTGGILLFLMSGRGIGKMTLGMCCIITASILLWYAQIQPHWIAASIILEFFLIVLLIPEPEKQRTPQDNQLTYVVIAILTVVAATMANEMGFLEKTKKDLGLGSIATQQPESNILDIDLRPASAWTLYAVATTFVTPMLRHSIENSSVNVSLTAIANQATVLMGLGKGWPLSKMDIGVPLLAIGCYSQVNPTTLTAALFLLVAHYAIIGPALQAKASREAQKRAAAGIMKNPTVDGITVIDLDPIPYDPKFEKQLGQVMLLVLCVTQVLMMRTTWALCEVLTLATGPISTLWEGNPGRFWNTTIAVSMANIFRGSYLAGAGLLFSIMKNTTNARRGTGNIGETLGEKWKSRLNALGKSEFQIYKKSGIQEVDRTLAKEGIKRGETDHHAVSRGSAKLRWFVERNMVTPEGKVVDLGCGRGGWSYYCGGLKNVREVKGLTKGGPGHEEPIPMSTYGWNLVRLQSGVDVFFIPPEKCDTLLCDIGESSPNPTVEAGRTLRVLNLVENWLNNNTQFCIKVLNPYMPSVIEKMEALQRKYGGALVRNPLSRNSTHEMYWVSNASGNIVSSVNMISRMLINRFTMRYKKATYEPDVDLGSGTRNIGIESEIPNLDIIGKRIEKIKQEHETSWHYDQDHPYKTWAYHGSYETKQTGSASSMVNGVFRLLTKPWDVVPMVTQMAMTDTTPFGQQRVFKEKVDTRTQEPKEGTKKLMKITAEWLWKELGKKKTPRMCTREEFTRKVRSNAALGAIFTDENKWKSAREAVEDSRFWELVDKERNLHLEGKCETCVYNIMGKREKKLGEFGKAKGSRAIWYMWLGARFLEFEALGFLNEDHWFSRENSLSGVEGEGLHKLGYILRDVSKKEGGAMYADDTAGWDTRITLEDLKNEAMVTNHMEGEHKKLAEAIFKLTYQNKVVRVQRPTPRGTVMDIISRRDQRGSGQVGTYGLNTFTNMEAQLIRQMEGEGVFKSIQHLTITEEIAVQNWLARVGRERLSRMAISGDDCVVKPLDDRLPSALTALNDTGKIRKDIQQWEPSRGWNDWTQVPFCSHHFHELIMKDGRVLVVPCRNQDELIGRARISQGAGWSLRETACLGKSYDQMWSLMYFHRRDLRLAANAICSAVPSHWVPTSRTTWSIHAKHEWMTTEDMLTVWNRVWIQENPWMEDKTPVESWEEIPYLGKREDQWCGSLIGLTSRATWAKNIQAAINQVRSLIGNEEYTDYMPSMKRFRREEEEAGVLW
# This is a selection; strong and weak results do not stand in their true shares.
# Biological target: Genome polyprotein (dengue virus type 2) (UniProt P29990)
# Assay: Functional biochemical assay to identify treatments for viral infectious disease that targets Dengue virus type 2 NS2B-NS3 protease. Utilizing a direct enzyme activity measurement method, reading the fluorescence intensity is used to characterize the relative potency of inhibitors as % inhibition. …
smiles,measurement,setting,value
O=c1[nH]c2ccccc2n1C1CCN(Cc2c[nH]c3ccccc23)CC1,inhibition,"Thailand/16681/1984, Concentration 49.5 uM, Number of replicates 2.0, Standard deviation 0.9681987948382585 %",1.5%
same,inhibition,"Thailand/16681/1984, Concentration 99.01 uM, Number of replicates 2.0, Standard deviation 0.6770795118460521 %",3.19%
same,inhibition,"Thailand/16681/1984, Concentration 198.0 uM, Number of replicates 2.0, Standard deviation 0.9570655783635603 %",5.23%
